A mixed list of measured activities; the numbers were collected in NIAID ChemDB.

Common to all: whole-cell or culture tests; agent: HIV-1; read by: syncytia; endpoint: EC50

Neighbouring rows are from separate reports.

O=C(CCCCCNCCCCCNCc1ccccc1)Nc1ccn([C@H]2CS[C@@H](CO)O2)c(=O)n1 ; cell line: MT-4 ; strain or isolate: LAV ; result: 10 µM
O=C(O)C(O)c1ccccc1 ; cell line: MT-2 ; strain or isolate: IIIS ; result: 0.3 µg/mL
CC(C)(C)OC(=O)N(CCCCCC(=O)OC[C@H]1O[C@@H](n2ccc(N)nc2=O)CS1)CCCCN(Cc1ccccc1)C(=O)OC(C)(C)C ; cell line: MT-4 ; strain or isolate: LAV ; result: 0.1 µM
Cc1cccc(CNc2nc3cc(C(=O)NC(C)CO)ccc3n2C2CCCCCC2)c1F ; conditions: 20% FBS ; cell line: H9 ; result: 0.1 µM
C[C@H](NP(=O)(OC[C@@H]1C=C[C@H](n2ccc(=O)[nH]c2=O)O1)Oc1ccccc1)C(=O)OCc1ccccc1 ; cell line: CEM ; result: >50 µM
CC(C)(C)OC(=O)N[C@@H](Cc1ccc(OCc2ccccc2)cc1)C(=O)N1CCC(=O)[C@H]1Sc1ccccc1 ; cell line: MT-4 ; result: 0.1 µM
CC(C)(O)CCc1c(O[C@@H]2O[C@H](CO)[C@@H](O)[C@H](O)[C@H]2O)cc2c(c1O)C(=O)[C@H](O)[C@@H](c1ccc(O)c(O)c1)O2 ; cell line: 1A2 ; strain or isolate: MC99 deltaTAT/REV ; result: 102.4 µg/mL
CCOCn1c(Sc2cc(C)cc(C)c2)c(CC)c(=O)[nH]c1=O ; mutations: RT-L100I ; cell line: CEM ; strain or isolate: IIIB (TIBO 82150) (RT-L100I) ; result: 0.006 µM
CC(C)OC(=O)[C@H](C)NP(=O)(OC[C@@H]1C=CC(n2ccc(=O)[nH]c2=O)O1)Oc1ccccc1 ; cell line: CEM ; result: >250 µM
CN(C)Cc1ccc(-n2cc(C(=O)O)c(=O)c3cc(F)c(N4CCN(c5ccccc5)CC4)nc32)cc1 ; cell line: PBL ; result: 0.3 µM
Cc1cc(C)cc(CNc2nc3cc(C(=O)NC(C)(CO)CO)ccc3n2C2CCCCCC2)c1 ; conditions: 20% FBS ; cell line: H9 ; result: 0.75 µM
O=C(O)c1cn(-c2ccc(CN3CCOCC3)cc2)c2c(Cl)c(N3CCN(c4ccc(F)cc4)CC3)c(F)cc2c1=O ; cell line: PBL ; result: 0.03 µM
O=c1cc(-c2ccc(O)cc2)oc2c([C@@H]3O[C@H](CO)[C@@H](O)[C@H](O)[C@H]3O)c(O)cc(O)c12 ; cell line: 1A2 ; strain or isolate: MC99 deltaTAT/REV ; result: >125 µg/mL
CC(C)OC(=O)c1cc(NC(=S)OC(C)C)ccc1Cl ; cell line: CEM ; strain or isolate: IIIB ; result: 0.029 µM
CCOCn1c(Sc2ccccc2)c(C(C)C)c(=O)[nH]c1=O ; cell line: CEM ; strain or isolate: IIIB ; result: 0.025 µM
Cc1cccc(CNc2nc3cc(C(=O)NC(C)(CO)CO)ccc3n2C2CCCCCC2)c1 ; conditions: 2% FBS ; cell line: H9 ; result: 0.1 µM
CC(C)(C)OC(=O)N[C@@H](Cc1ccc(O)cc1)C(=O)N1CCC(=O)[C@@H]1Sc1ccccc1 ; cell line: MT-4 ; result: 50 µM
CC1=C(C(=O)Nc2ccc(Cl)c(C(=O)OC(C)C)c2)SCCO1 ; mutations: RT-Y181C ; cell line: CEM ; strain or isolate: IIIB ; result: 42 µM
CCc1ccccc1N1CCN(c2c(F)cc3c(=O)c(C(=O)O)cn(-c4ccc(CN5CCOCC5)cc4)c3c2Cl)CC1 ; cell line: PBL ; result: 0.3 µM
CCc1c(Sc2ccccc2)n(COCc2ccccc2)c(=S)[nH]c1=O ; cell line: CEM ; strain or isolate: IIIB ; result: 0.003 µM
Cc1cn([C@H]2C=C[C@@H](CO)O2)c(=O)[nH]c1=O ; cell line: CEM ; result: 0.65 µM
CCc1c(Cc2cc(C)cc(C)c2)n(COCCO)c(=O)[nH]c1=O ; mutations: RT-Y181C ; cell line: CEM ; strain or isolate: IIIB ; result: 1.3 µM
CC(CO)(CO)NC(=O)c1ccc2c(c1)nc(NCc1cccc3ccccc13)n2C1CCCCCC1 ; conditions: 20% FBS ; cell line: H9 ; result: 1 µM
O=C(N[C@@H](Cc1ccccc1)C(=O)N1CCC(=O)C1Sc1ccccc1)c1ccc2ccccc2n1 ; cell line: MT-4 ; result: >50 µM
CCc1c(Sc2cc(C)cc(C)c2)n(COCc2ccccc2)c(=S)[nH]c1=O ; mutations: RT-Y181C ; cell line: CEM ; strain or isolate: IIIB ; result: 0.32 µM
CCOC(=O)[C@H](C)NP(=O)(OC[C@@H]1C=CC(n2ccc(=O)[nH]c2=O)O1)Oc1cccc2ccccc12 ; cell line: CEM ; result: >50 µM
CCOCn1c(Sc2ccccc2)c(CC)c(=O)[nH]c1=O ; mutations: RT-E138K ; cell line: CEM ; strain or isolate: IIIB ; result: 0.13 µM
O=C(O)c1cn(-c2ccc(CN3CCOCC3)cc2)c2nc(N3CCN(c4ccc(F)cc4)CC3)c(F)cc2c1=O ; cell line: PBL ; result: 0.3 µM
CCOCn1c(Sc2cc(C)cc(C)c2)c(CC)c(=O)[nH]c1=S ; mutations: RT-E138K ; cell line: CEM ; strain or isolate: IIIB ; result: 0.03 µM
Cc1cccc(CNc2nc3cc(C(=O)NC(C)(CO)CO)ccc3n2C2CCCCCC2)c1F ; conditions: 2% FBS ; cell line: H9 ; result: 1.5 µM
CCc1c(Sc2cc(C)cc(C)c2)n(COCc2ccccc2)c(=O)[nH]c1=O ; mutations: RT-Y188H ; cell line: CEM ; strain or isolate: IIIB ; result: 0.63 µM
Cc1cc(C)cc(CNc2nc3cc(C(=O)NC(C)CO)ccc3n2C2CCCCCC2)c1 ; conditions: 20% FBS ; cell line: H9 ; result: 0.3 µM
O=C(CCCCCNCc1ccccc1)Nc1ccn([C@H]2CS[C@@H](CO)O2)c(=O)n1 ; cell line: MT-4 ; strain or isolate: LAV ; result: 10 µM
CCOCn1c(Cc2ccccc2)c(CC)c(=O)[nH]c1=O ; mutations: RT-E138K ; cell line: CEM ; strain or isolate: IIIB ; result: 0.09 µM
CC(C)=CCc1c(O[C@@H]2O[C@H](CO)[C@@H](O)[C@H](O)[C@H]2O)cc2c(c1O)C(=O)[C@H](O)[C@@H](c1ccc(O)c(O)c1)O2 ; cell line: 1A2 ; strain or isolate: MC99 deltaTAT/REV ; result: 44.2 µg/mL

5 of the rows above, restated:

O=C(O)C(O)c1ccccc1 ; cell line: MT-2 ; strain or isolate: IIIS ; result: 0.3 µg/mL
CC(C)(C)OC(=O)N(CCCCCC(=O)OC[C@H]1O[C@@H](n2ccc(N)nc2=O)CS1)CCCCN(Cc1ccccc1)C(=O)OC(C)(C)C ; cell line: MT-4 ; strain or isolate: LAV ; result: 0.1 µM
CCc1c(Cc2cc(C)cc(C)c2)n(COCCO)c(=O)[nH]c1=O ; mutations: RT-Y181C ; cell line: CEM ; strain or isolate: IIIB ; result: 1.3 µM
Cc1cn([C@H]2C=C[C@@H](CO)O2)c(=O)[nH]c1=O ; cell line: CEM ; result: 0.65 µM
CCc1ccccc1N1CCN(c2c(F)cc3c(=O)c(C(=O)O)cn(-c4ccc(CN5CCOCC5)cc4)c3c2Cl)CC1 ; cell line: PBL ; result: 0.3 µM

ECn: concentration that inhibits the pathogen or its effect by n%.